Assay results reported in paper PMC2840190.

Key:
[1] = target: full-length gp120 from the A subtype 92UG031 HIV-1 isolate (HIV-1 (A subtype, isolate 92UG031)); test: ITC
[2] = target: gp120-A prebound to 17b (HIV-1 (A subtype, isolate 92UG031)); test: ITC

Soluble D1-D2-D3-D4 CD4 (from UniProt P01730 26-396) (domain or fragment)
Kd [1]: 108 nM | dH [1]: -31.3 kcal/mol | dH [2]: -21.7 kcal/mol
